A mixed list of measured activities; the numbers were collected in NIAID ChemDB.

Shared fields: tests on isolated targets; species: HIV-1; target: Reverse transcriptase; read by: nucleotide incorporation; measure: inhibition

Rows are shuffled and stem from different studies. Percent inhibition refers to the dose given; in toxicity tests it is the harm to the cells.

| smiles | tested at | result |
|---|---|---|
| CCSC(=O)N1c2ccccc2C=CC1C#N | 50 µM | ≤30% |
| O=C(NCCc1ccccc1)Nc1nc2ccc(Cl)cc2s1 | 10 µg/mL | 18% |
| O=C(c1cc2ccccc2[nH]1)N1CCN(c2ncccc2NCc2ccccc2)CC1 | 100 µM | 15% |
| Cc1nnc(NC(=O)NCCc2ccccc2)s1 | 10 µg/mL | 18% |
| CCNc1cccnc1N1CCN(Cc2cc(C(C)C)c(O)c(C(C)C)c2)CC1 | 100 µM | 0% |
| N#CC1C=Cc2ccccc2N1C(=O)c1ccccc1S | 50 µM | ≤30% |
| CCN1c2ncccc2-c2cscc2-c2ccc(Cl)nc21 | 1 µM | 91% |
| CCCCOC(=O)N1c2ccc([N+](=O)[O-])cc2C=CC1C#N | 50 µM | ≤30% |
| O=C(NCCc1ccccc1)Nc1ccccc1Cl | 1 µg/mL | 31% |
| CCS(=O)(=O)S(=O)(=O)N1c2ccccc2C=CC1C#N | 50 µM | ≤30% |
| CCNc1cccnc1N1CCN(CCCc2cc(C)c(OC)c(C)c2)CC1 | 100 µM | 31% |
| NOCc1c(F)cccc1Cl | 0.16 µg/mL | 0.4% |
| C=CCOC(=O)N1c2ccc([N+](=O)[O-])cc2C=CC1C#N | 50 µM | ≤30% |
| O=C(NCCc1ccccc1)Nc1nc2ccc(F)cc2s1 | 1 µg/mL | 38% |
| COc1cccc2[nH]c(C(=O)N3CCN(c4ncccc4NC(C)C)CC3)cc12 | 100 µM | 61% |
| CC(C)OC(=O)N1c2ccccc2C=CC1C(N)=O | 50 µM | ≤30% |
| O=C(NCCc1ccccc1)Nc1nc2c(Cl)cccc2s1 | 10 µg/mL | 1% |
| CCN1c2ncccc2-c2cscc2-c2ccc(-c3cn[nH]c3)nc21 | 1 µM | 68% |
| O=C(NCCc1ccccc1)Nc1nc(-c2ccc(Br)cc2)cs1 | 1 µg/mL | 1% |
| COc1ccc2c(c1)C=CC(C#N)N2C(=O)Oc1ccccc1 | 50 µM | ≤30% |
| O=C(NCCc1ccccc1)NCc1ccoc1 | 10 µg/mL | 10% |
| CC(C)Nc1cccnc1N(C)CCOC(=O)c1cc2ccccc2[nH]1 | 100 µM | 72% |
| Cc1cccc2sc(NC(=O)NCCc3ccccc3)nc12 | 0.1 µg/mL | 12% |
| N#CC1C=Cc2ccccc2N1C(=O)Oc1ccccc1 | 50 µM | 48.7% |

For reference, 3 entries again:

smiles | tested at | result
CCN1c2ncccc2-c2cscc2-c2ccc(Cl)nc21 | 1 µM | 91%
O=C(c1cc2ccccc2[nH]1)N1CCN(c2ncccc2NCc2ccccc2)CC1 | 100 µM | 15%
CC(C)OC(=O)N1c2ccccc2C=CC1C(N)=O | 50 µM | ≤30%